## Sequence variants of PSTVd loop 6 after infection

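A pool of all variants was put on leaves of three Nicotiana benthamiana plants. Progeny were sequenced from the inoculated region (day 5), the margin of the inoculated leaf (day 10) and systemic leaves (day 12).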

The pool varies loop 6 of the PSTVd intermediate strain in the pattern UNNNCGNNNG; wild type is UGACCGCGAG (upper and lower strand joined, each 5' to 3', the first 5 letters being the upper strand, closing pairs included).

Values are reads per thousand in the sample; higher means more abundant, 0 means not found.
Each value is the mean of three plants.
"Pool" is the share in the plasmid pool used as inoculum, on the same scale.
The inoculated region was read from the minus strand, the other sites from the plus strand.
IR is the inoculated region, LM the leaf margin, Sys the systemic leaves.
The authors trace changes outside the varied positions to PCR and sequencing errors or to mutation in the plant; presence does not show that a variant is infectious alone.
With 36,220-57,551 reads a sample, very low values are single reads.
Wild type was 20.7 per thousand in the pool and the most common sequence in every sample (inoculated region 195, 198, 203; leaf margin 629, 591, 734; systemic leaves 942, 870, 868).

For UGACGGUUCG (pool 0.0131) the result was IR 0; LM 0; Sys 0.
For UGGACGAGGG (pool 0.235) the result was IR 0.101; LM 0; Sys 0.
For UAUGCGAUAG (pool 0.261) the result was IR 0.135; LM 0.0773; Sys 0.
For UUACCGGUGG (pool 0.248) the result was IR 0.0847; LM 0.0339; Sys 0.
For UCCACGUGUG (pool 0.105) the result was IR 0.0654; LM 0.00773; Sys 0.
For UGGGCGUAAG (pool 0.157) the result was IR 0.0829; LM 0.00773; Sys 0.
For UAUACGUGGG (pool 0.248) the result was IR 0.0652; LM 0.00773; Sys 0.
For UCUCCGUUGG (pool 0.196) the result was IR 0.107; LM 0; Sys 0.
For UGGUCUGCAG (pool 0.0131) the result was IR 0; LM 0; Sys 0.
For UGUGCGACCG (pool 0.209) the result was IR 0.0719; LM 0; Sys 0.
For UAAGCGCCCG (pool 0.392) the result was IR 0.107; LM 0; Sys 0.
For UGGACGGUGG (pool 0.261) the result was IR 0.113; LM 0; Sys 0.
For UGAUCGUAGG (pool 0.248) the result was IR 0.138; LM 0; Sys 0.
For GGACCGGGGG (pool 0.0131) the result was IR 0.00599; LM 0.00841; Sys 0.
For UUAUCGUAUG (pool 0.340) the result was IR 0.101; LM 0.0644; Sys 0.
For UGGUCGUAAG (pool 0.118) the result was IR 0.143; LM 0.00920; Sys 0.
For UUGUCGCCAG (pool 0.261) the result was IR 0.0659; LM 0.00773; Sys 0.
For UCUGCGAGAG (pool 0.275) the result was IR 0.0842; LM 0.00773; Sys 0.
For UUACCGAUAG (pool 0.275) the result was IR 0.150; LM 0.117; Sys 0.
For UAGUCGAACG (pool 0.183) the result was IR 0.112; LM 0.0155; Sys 0.
For UGAGCGCUAG (pool 0.196) the result was IR 0.0954; LM 0.00773; Sys 0.
For UAAGCGCUUG (pool 0.170) the result was IR 0.113; LM 0.0184; Sys 0.
For UGAACGGGAG (pool 0.157) the result was IR 0.770; LM 0.206; Sys 0.0858.
For UUUACGCGAA (pool 0.0131) the result was IR 0.597; LM 0.0660; Sys 0.
For UACGCGAGGG (pool 0.196) the result was IR 0.0597; LM 0; Sys 0.
For UGCACGCGCG (pool 0.301) the result was IR 0.0652; LM 0.00920; Sys 0.

Extract of 2 entries:

sequence,pool,IR,LM,Sys
UUGUCGCCAG,0.261,0.0659,0.00773,0
UUACCGAUAG,0.275,0.150,0.117,0

Reference: Wu et al. 2024, doi:10.1371/journal.ppat.1012142.